PubChem BioAssay AID624099 | ICCB-Longwood, 2012
Shown is an unselected part of about 21,000 reagents. Over the whole deposit, 497 (2.4%) were called active. 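Higher z means weaker E2 silencing; only reporter increases were scored, and knock-downs that hurt cell survival may mask genuine repressor factors.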 A number with no mark means an inactive call.

- Assay: 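Knock-downs relieving repression by E2 of an HPV18 LCR luciferase reporter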 (primary screen)
- System: human C33A cervical carcinoma cells (HPV-negative) stably expressing BPV1 E2 and an HPV18 LCR luciferase reporter
- Reagent: siRNA pool against human genes, 40 nM
- Duration: 72 h
- Read-out: 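Per-well luciferase luminescence, z-scored on each plate against the plate mean and SD with control wells left out, then averaged across three replicate plates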
- Reading the numbers: mean z-score and z-score: higher = stronger reporter signal, weaker E2 silencing
- Call rule: 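Hit if mean z-score reaches 2 and two or more of three replicate z-scores also reach 2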

How did the screen score TTC13 (tetratricopeptide repeat domain 13)?
mean z-score: -0.06; z-score, replicate A: -0.74; z-score, replicate B: 0.15; z-score, replicate C: 0.41

With PYROXD1 (pyridine nucleotide-disulphide oxidoreductase domain 1), what was measured?
mean z-score: -1.18; z-score, replicate A: -1.08; z-score, replicate B: -1.18; z-score, replicate C: -1.27

For THOC6 (THO complex subunit 6), how do the results read?
mean z-score: 0.19; z-score, replicate A: 0.51; z-score, replicate B: 0.37; z-score, replicate C: -0.3

How did the screen score B3GNT9?
mean z-score: -0.36; z-score, replicate A: -0.3; z-score, replicate B: -0.26; z-score, replicate C: -0.53

With SCRN2 (secernin 2), what does the deposit list?
mean z-score: -1.86; z-score, replicate A: -1.63; z-score, replicate B: -1.86; z-score, replicate C: -2.1

What is on record for DMP1 (dentin matrix acidic phosphoprotein 1)?
mean z-score: -0.89; z-score, replicate A: -0.79; z-score, replicate B: -0.85; z-score, replicate C: -1.04

What is on record for CCDC188 (coiled-coil domain containing 188)?
mean z-score: 0.34; z-score, replicate A: 0.48; z-score, replicate B: 0.34; z-score, replicate C: 0.21

For GRM4 (glutamate metabotropic receptor 4), what was measured?
mean z-score: -0.29; z-score, replicate A: -0.19; z-score, replicate B: -0.26; z-score, replicate C: -0.41

How did the screen score LOC388684 (retired record)?
mean z-score: -0.37; z-score, replicate A: -0.39; z-score, replicate B: -0.27; z-score, replicate C: -0.46

With MFAP2 (microfibril associated protein 2), what does the deposit list?
mean z-score: -0.01; z-score, replicate A: -0.05; z-score, replicate B: -0.07; z-score, replicate C: 0.09

For BANF2 (BANF family member 2), what does the deposit list?
mean z-score: -2.12; z-score, replicate A: -2.24; z-score, replicate B: -2.38; z-score, replicate C: -1.74

How did the screen score CEACAM20 (CEA cell adhesion molecule 20)?
mean z-score: -1.63; z-score, replicate A: -1.24; z-score, replicate B: -1.65; z-score, replicate C: -2

A stretch of the results above:
DMP1 (dentin matrix acidic phosphoprotein 1) | mean z-score: -0.89; z-score, replicate A: -0.79; z-score, replicate B: -0.85; z-score, replicate C: -1.04
CCDC188 (coiled-coil domain containing 188) | mean z-score: 0.34; z-score, replicate A: 0.48; z-score, replicate B: 0.34; z-score, replicate C: 0.21

Next results:
With C10orf55 (chromosome 10 putative open reading frame 55), what does the deposit list?
mean z-score: -0.8; z-score, replicate A: -0.81; z-score, replicate B: -0.89; z-score, replicate C: -0.71

With CTSV (cathepsin V), how do the results read?
mean z-score: 0.25; z-score, replicate A: 0.26; z-score, replicate B: 0.31; z-score, replicate C: 0.18

With DGCR8 (DGCR8 microprocessor complex subunit), how do the results read?
mean z-score: 0.04; z-score, replicate A: -0.33; z-score, replicate B: -0.01; z-score, replicate C: 0.47

With PTDSS2 (phosphatidylserine synthase 2), how do the results read?
mean z-score: 1.38; z-score, replicate A: 1.3; z-score, replicate B: 1.27; z-score, replicate C: 1.58

What is on record for NPTXR (neuronal pentraxin receptor)?
mean z-score: -2.17; z-score, replicate A: -2.23; z-score, replicate B: -2.23; z-score, replicate C: -2.06

What did the screen give for ZDHHC22 (zDHHC palmitoyltransferase 22)?
mean z-score: -3.13; z-score, replicate A: -2.7; z-score, replicate B: -3.41; z-score, replicate C: -3.29

For TOMM22 (translocase of outer mitochondrial membrane 22), what does the deposit list?
mean z-score: 0.1; z-score, replicate A: 0.3; z-score, replicate B: -0.08; z-score, replicate C: 0.08

Which result is listed for FBXO11 (F-box protein 11)?
mean z-score: -0.47; z-score, replicate A: -0.67; z-score, replicate B: -0.13; z-score, replicate C: -0.62

For MTRF1L (mitochondrial translation release factor 1 like), what does the deposit list?
mean z-score: 0.74; z-score, replicate A: 0.77; z-score, replicate B: 0.73; z-score, replicate C: 0.72
